Compound potency records, mixed from different reports. Data source: NIAID ChemDB in PubChem.

Shared fields: whole-cell or culture tests; agent: HIV-2; measure: EC50

ECn is the concentration giving n% inhibition of infection, replication or growth. An empty or dashed field is not shown. Conditions beyond the fields shown may differ between rows.

smiles,read by,strain,cell line,result
Cc1cn([C@@H]2O[C@@H]3CN[C@@]4(OCC(C)(C)C)CS(=O)(=O)O[C@@]34[C@H]2O)c(=O)[nH]c1=O,-,ROD,CEM,>250 µM
O=C1c2ccccc2N(Cc2ccccc2)S(=O)(=O)N1Cc1ccccc1,p24,ROD,CEM + CEM-SS,>50 µM
Cc1cccc(Nc2ccccc2C(=O)Nc2ccc(C(=O)/C=C/c3ccc(N(C)C)cc3)cc2)c1C,MTT / absorbance,ROD,MT-4,>2.06 µM
CCCOC(=O)[C@H](Cc1ccccc1)NP(=O)(CO[C@H]1CO[C@@H](n2cnc3c(NC4CC4)nc(N)nc32)C1)N[C@@H](Cc1ccccc1)C(=O)OCCC,MTT / absorbance,ROD,MT-4,3.99 µM
O=C(c1cccc(F)c1)c1ccc2[nH]c(=O)sc2c1,syncytia,ROD,CEM,>40 µg/mL
Nc1ncnc2c1ncn2[C@H]1C[C@@H](OCP(=O)(O)O)CO1,MTT / absorbance,ROD,MT-4,5.23 µM
O=C1c2ccccc2N(COCc2ccccc2)S(=O)(=O)N1COCc1ccccc1,p24,ROD,MT-4,>44 µM
Cc1cn([C@@H]2O[C@@H]3CN[C@@]4(C#N)CS(=O)(=O)O[C@@]34[C@H]2O[Si](C)(C)C(C)(C)C)c(=O)[nH]c1=O,-,ROD,CEM,>50 µM
O=C1c2ccccc2N(Cc2cccc3ccccc23)S(=O)(=O)N1Cc1ccccc1,p24,ROD,MT-4,>125 µM
Nc1nc(NC2CC2)c2ncn([C@H]3C[C@@H](OCP(=O)(O)O)CO3)c2n1,MTT / absorbance,ROD,MT-4,>338 µM
COc1cc(C)cc2c(-c3c(O)cc(O)c4c3C[C@@H](C)N[C@@H]4C)cc(-c3cc(-c4c(O)cc(O)c5c4C[C@@H](C)N[C@@H]5C)c4cc(C)cc(OC)c4c3O)c(O)c12,cytopathic effect / XTT,CBL-20,CEM + CEM-SS,2 µM
CC(C)[C@H](NC(=O)CCc1nc2ccccc2[nH]1)C(=O)N[C@@H](Cc1ccccc1)[C@@H](O)[C@@H](NCc1ccccc1)C(=O)N[C@H](C(=O)NCc1ccccc1)C(C)C,p24,EHO,MT-4,0.62 µM
C/C=C/CSc1cc(NC(=S)c2ccsc2C)ccc1Cl,p24,ROD,CEM + CEM-SS,>2 µM
CCO[C@]12CS(=O)(=O)O[C@@]13[C@@H](CN2)O[C@@H](Sc1ccccc1)[C@@H]3O[Si](C)(C)C(C)(C)C,-,ROD,CEM,>50 µM
CC(C)[C@H](NC(=O)[C@H](NCc1ccc(Cl)cc1)[C@H](O)[C@H](Cc1ccccc1)NC(=O)[C@@H](NC(=O)OCc1ccccc1)C(C)(C)C)C(=O)NCc1nc2ccccc2[nH]1,p24,ROD,MT-4,0.3 µM
CCO[C@]12CS(=O)(=O)O[C@@]13[C@@H](CN2)O[C@@H](n1ccc(=O)[nH]c1=O)[C@@H]3O[Si](C)(C)C(C)(C)C,-,ROD,CEM,>50 µM
Nc1nc(N)c2ncn([C@H]3C[C@@H](OCP(=O)(O)O)CO3)c2n1,MTT / absorbance,ROD,MT-4,8.15 µM
Cc1cccc(Nc2ccccc2C(=O)Nc2ccc(C(=O)/C=C/c3ccc(Br)cc3)cc2)c1C,MTT / absorbance,ROD,MT-4,>12.68 µM
CC(C)[C@H](NC(=O)[C@H](NCc1ccccc1)[C@H](O)[C@H](Cc1ccccc1)NC(=O)[C@@H](NC(=O)OCc1ccccc1)C(C)(C)C)C(=O)NCc1ccccc1,p24,EHO,MT-4,0.714 µM
Cc1cn([C@@H]2O[C@@H]3CN[C@@]4(OCC5CCOC5)CS(=O)(=O)O[C@@]34[C@H]2O[Si](C)(C)C(C)(C)C)c(=O)[nH]c1=O,-,ROD,MT-4,>10 µM
CCCCC(=O)c1ccc2c(c1)sc(=O)n2CC=O,syncytia,ROD,CEM,>8 µg/mL
CO[C@]12CS(=O)(=O)O[C@@]13[C@@H](CN2)O[C@@H](n1cc(C)c(=O)[nH]c1=O)[C@@H]3O,-,ROD,MT-4,>250 µM
CCCCC(=O)c1ccc2c(c1)sc(=O)n2CCN1CCOCC1,syncytia,ROD,CEM,>8 µg/mL
CCCCO[C@]12CS(=O)(=O)O[C@@]13C(CN2)O[C@@H](n1cc(C)c(=O)[nH]c1=O)[C@@H]3O[Si](C)(C)C(C)(C)C,-,ROD,MT-4,>10 µM
Cc1cccc(Nc2ccccc2C(=O)Nc2ccc(-c3cc(-c4ccccc4)nc(=S)[nH]3)cc2)c1C,MTT / absorbance,ROD,MT-4,>13.9 µM
O=C(c1ccccc1)c1ccc2[nH]c(=O)sc2c1,syncytia,ROD,CEM,4.6 µg/mL
O=C1c2ccccc2N(Cc2ccccc2)S(=O)(=O)N1Cc1ccc(Cl)cc1,p24,ROD,MT-4,>38 µM
Cc1cn([C@@H]2O[C@@H]3CN[C@@]4(O[Si](C)(C)C(C)(C)C)CS(=O)(=O)O[C@@]34[C@H]2O[Si](C)(C)C(C)(C)C)c(=O)[nH]c1=O,-,ROD,CEM,>2 µM
Cc1ccc(/C=C/C(=O)c2ccc(NC(=O)c3ccccc3Nc3cccc(C)c3C)cc2)cc1,MTT / absorbance,ROD,MT-4,>76.9 µM
O=C1c2ccccc2N(Cc2ccc(Cl)c(Cl)c2)S(=O)(=O)N1Cc1ccccc1,p24,ROD,MT-4,>125 µM
CC(C)[C@H](NC(=O)OCc1ccccc1)C(=O)N[C@@H](Cc1ccccc1)[C@@H](O)[C@@H](NCc1ccccc1)C(=O)N[C@H](C(=O)NCc1nc2ccccc2[nH]1)C(C)C,p24,EHO,MT-4,0.805 µM